Here are results for one compound from patent US20210346339A1, “THERAPEUTIC FLAVONOID BASED ANTIVIRAL AGENTS” (priority 2016, published 2021).

Molecules are shown by their SMILES. In brackets after ≈: the same amount, converted by molar mass.

This assay deals with cell culture-derived HCV (HCVcc). The following applies: HCVcc in Huh-7.5 cells, 72 hr; test concentration 100 μg/mL.

`COc1cc(O)c2c(=O)c(OC)c(-c3ccc(O)c(O)c3)oc2c1`: the EC50 (commonly the midpoint of the concentration-response curve) turned out to be 1.37 µg/mL (≈ 4.15 µM).
